# Measurements published in patent publication US6528295B2, “Protein phosphatase methylesterase” (priority 1998, dated 2003).
# Chains of the proteins cited; added tags and fusions are not shown.
# UniProt P67775, whole entry H59Q, looked up: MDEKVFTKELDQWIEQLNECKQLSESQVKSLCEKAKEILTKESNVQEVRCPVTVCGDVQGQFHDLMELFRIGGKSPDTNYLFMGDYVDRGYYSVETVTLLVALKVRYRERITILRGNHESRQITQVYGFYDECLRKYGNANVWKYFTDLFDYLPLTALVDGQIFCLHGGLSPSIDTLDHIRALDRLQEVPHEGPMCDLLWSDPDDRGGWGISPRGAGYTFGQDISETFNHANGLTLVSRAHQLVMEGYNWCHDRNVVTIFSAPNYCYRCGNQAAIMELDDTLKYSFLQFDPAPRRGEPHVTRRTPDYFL
# UniProt P67775, whole entry, looked up: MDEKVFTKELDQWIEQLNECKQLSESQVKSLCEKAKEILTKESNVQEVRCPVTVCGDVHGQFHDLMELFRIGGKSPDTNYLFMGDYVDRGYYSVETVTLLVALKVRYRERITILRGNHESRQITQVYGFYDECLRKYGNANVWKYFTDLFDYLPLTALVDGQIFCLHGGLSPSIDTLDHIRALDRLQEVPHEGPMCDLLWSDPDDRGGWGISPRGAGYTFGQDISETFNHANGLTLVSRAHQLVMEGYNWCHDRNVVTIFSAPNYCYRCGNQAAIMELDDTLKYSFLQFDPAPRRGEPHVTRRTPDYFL
# How the values were obtained:
# H59Q/PME-1 complex = H59Q/PME-1 complex (Homo sapiens, UniProt P67775, H59Q); conditions: NIH3T3 lysis buffer with sodium vanadate 1 mM; NaF 50 mM; okadaic acid 500 nM; PAO 10 μM; Na4P2O7 20 mM
# PP2A = PP2A (Homo sapiens, UniProt P67775); experiment: PP2A phosphatase inhibition using phosphorylase a as substrate; format: biochemical; conditions: separate experiment
structure (smiles),measurement,setting,value
O=[As]c1ccccc1 (centres unmarked),amount of PME-1 bound to (complexed with) H59Q C subunit,H59Q/PME-1 complex,not
same,inhibition of PP2A,PP2A,no
